Compound potency records, mixed from different reports. Data source: NIAID ChemDB in PubChem.

Common to all: target-level tests; species: HIV-1; target: Reverse transcriptase; endpoint: inhibition

Inhibition is in % at the dose shown (toxicity tests: loss of growth or viability). Blank or dashed fields: not listed here. Rows are shuffled and stem from different studies.

| structure | read by | tested at | mutations | strain or isolate | value |
|---|---|---|---|---|---|
| CC(C)(C)c1ccc(CSc2nc(Cc3ccccc3)cc(=O)[nH]2)cc1 | ELISA | 100 µM |  |  | 0% |
| CCN1C(=O)c2ccnnc2N(C2CC2)c2ccc(C)cc21 |  | 33 µM |  |  | 18% |
| C[Si](O)(O[Si](C)(CCCn1cnc2c(N)ncnc21)c1ccccc1)c1ccccc1 |  | 400 µM |  |  | 30% |
| O=C(CC(=O)Nc1ccc2ccccc2n1)Nc1ccc(Cl)cn1 | RT activity / absorbance | 100 µM |  |  | 65.52% |
| CC(C)Nc1cccnc1NCCNC(=O)c1cc2ccccc2[nH]1 | nucleotide incorporation | 100 µM |  |  | 2% |
| O=C(c1cc(Br)c(O)c(Br)c1)c1c(-c2cc(Br)c(O)c(Br)c2)c(-c2cc(Br)c(O)c(Br)c2)c(C(=O)c2cc(Br)c(O)c(Br)c2)n1CCc1ccc(O)cc1 | nucleotide incorporation / radiometric | 0.4775 µM |  |  | 95% |
| CN1CCN(c2nc3c(cc2F)c(=O)c(C(=O)O)cn3-c2ccc3ccccc3c2)CC1.CS(=O)(=O)O | ELISA | 1 µg/mL |  |  | 39% |
| O=C(O)CCC(CCC(=O)O)(CCC(=O)O)NC(=O)CCC(CCC(=O)NC(CCC(=O)O)(CCC(=O)O)CCC(=O)O)(CCC(=O)NC(CCC(=O)O)(CCC(=O)O)CCC(=O)O)NC(=O)CCCOC(=O)C1(C(=O)OCCCC(=O)NC(CCC(=O)NC(CCC(=O)O)(CCC(=O)O)CCC(=O)O)(CCC(=O)NC(CCC(=O)O)(CCC(=O)O)CCC(=O)O)CCC(=O)NC(CCC(=O)O)(CCC(=O)O)CCC(=O)O)C2c3cc4c5c6c3-c3c(cc7c8c3C6C3c6c-5c(cc5ccc9cc(c-8c3c9c65)C7)C4)C21 |  | 2.1 µM |  |  | 90% |
| C=C(C)C1C=C[C@@H](OC(=O)c2cccnc2)C23COC(C)(C(=O)[C@@]4(OC(C)=O)C[C@H](C)[C@H](OC(=O)CC)C4[C@H]2OC(=O)CCC)C13 | nucleotide incorporation | 200 µg/mL |  |  | 5.46% |
| CCCN1C(=O)c2ccnnc2Oc2c(C)cc(C)cc21 | ELISA | 330 µM |  |  | 92% |
| O=C(CC(=O)Nc1ccc2ccccc2n1)Nc1ccc(CCl)cn1 | RT activity / absorbance | 100 µM |  |  | 85.39% |
| S=C(NCCc1ccccn1)Nc1cnccn1 |  | 330 µM |  |  | 77% |
| Cc1cccc(C)c1OCC(=O)N[C@@H](Cc1ccccc1)[C@H](O)[C@@H](O)[C@@H]1CCCN1C(=O)COc1c(C)cccc1C |  | 0.00000001 µM |  |  | 71% |
| C[C@@H]1CC=C2C(CO)=CCC[C@@H]2[C@@]12C[C@@H](c1ccoc1)OC2=O | RT activity / luminescence | 100 µM |  |  | 20% |
| CC(C)(C)CNc1cccnc1N1CCN(C(=O)c2cc3ccccc3[nH]2)CC1 | nucleotide incorporation | 100 µM |  |  | 42% |
| CCN1c2ncccc2C(=O)Nc2c(COc3ccccc3)cc(-c3cccc(OC)c3)nc21 |  | 37 µM | RT-Y181C |  | 1% |
| CS(=O)(=O)Nc1cccnc1N1CCN(C(=O)c2cc3ccccc3[nH]2)CC1 | nucleotide incorporation | 100 µM |  |  | 44% |
| CCCN1c2ccccc2N(C)C(=O)c2cc(Cl)nnc21 |  | 33 µM |  |  | 31% |
| CN1CCN(c2cc3c(cc2F)c(=O)c(C(=O)O)cn3-c2cccc3ccccc23)CC1.CS(=O)(=O)O | ELISA | 1 µg/mL |  |  | 60% |
| COc1ccc2c(c1)N(CC(C)C)C(=O)c1ccnnc1O2 | ELISA | 33 µM |  |  | 21% |
| CCN(C(C)=O)c1cccnc1N1CCN(C(=O)c2cc3ccccc3[nH]2)CC1 | nucleotide incorporation | 100 µM |  |  | 9% |
| C=C(C)C1C=C[C@@H](OC(=O)c2cccnc2)C23COC(C)(C(=O)[C@@]4(OC(C)=O)C[C@H](C)[C@H](OC(=O)CCC)C4[C@H]2OC(=O)CCC)C13 | nucleotide incorporation | 200 µg/mL |  |  | 92.7% |
| CCN1c2ncccc2C(=O)Nc2c(C=O)cc(-c3cccc(OC)c3)nc21 |  | 63 µM | RT-Y181C |  | 1% |
| O=C(O)c1cn([C@@H]2O[C@H](CO)[C@@H](O)[C@H]2O)c2ccc(Br)cc2c1=O |  | 100 µM |  |  | 0% |
| O=C(CC(=O)Nc1ccc2ccccc2n1)Nc1cc([N+](=O)[O-])ccn1 | RT activity / absorbance | 100 µM |  |  | 71.36% |
| O=S(=O)(c1ccc(Cl)cc1)c1c[nH]c2ccccc12 | RT activity | 100 µM | K103N |  | 62% |
| S=C(NCCc1ccccn1)Nc1ncccn1 |  | 330 µM |  |  | 73% |
| Nc1cc(Cc2ccccc2)nc(SCCc2ccccc2)n1 | ELISA | 100 µM |  |  | 0% |
| O=C1C2=C(SCCS2)C(=O)N1CCCCN1CCN(c2ccccc2)CC1 | RT activity | 200 µg/mL |  |  | 82.2% |
| Cc1ccc(S(=O)(=O)c2c(-c3ccccc3)[nH]c3ccccc23)cc1 | RT activity | 100 µM | WT |  | 58% |
| Cc1ccc2c(c1)N(C(C)C)C(=O)c1cc(Cl)nnc1O2 | ELISA | 330 µM |  |  | 72% |
| CC(NC(=S)Nc1nc2ccccc2s1)c1ccccc1 | ELISA / absorbance | 10 µM |  |  | 60.2% |
| CCCCN1C(=O)c2cc(Cl)nnc2N(C2CC2)c2ccccc21 |  | 33 µM |  |  | 1% |
| O=C(CC(=O)Nc1ccc2ccccc2n1)Nc1ccc(C(F)(F)F)cn1 | RT activity / absorbance | 100 µM |  |  | 63% |
| NOCc1c(F)cccc1Cl | nucleotide incorporation | 0.16 µg/mL |  |  | 0.4% |
| COc1cc(O)c2c(=O)cc(-c3cc(O)c(OC)c(OC)c3O)oc2c1 | RT activity | 200 µg/mL |  |  | 0.83% |
| O=C(CC(=O)Nc1ncc(Cl)cc1Cl)Nc1ccc2ccccc2n1 | RT activity / absorbance | 100 µM |  |  | 78.33% |
| CCN1c2ncccc2C(=O)Nc2c(COc3ccccc3)cc(OC)nc21 |  | 44 µM |  | WT | 1% |
| CCNc1cccnc1N1CCN(CCc2cc(C)c(O)c(C)c2)CC1 | nucleotide incorporation | 100 µM |  |  | 24% |
| CCCN1C(=O)c2ccnnc2N(CCC)c2ccc(C)cc21 |  | 33 µM |  |  | 1% |
| CS(=O)(=O)O.C[C@@H]1CN(c2cc3c(cc2F)c(=O)c(C(=O)O)cn3-c2ccc3ccccc3c2)C[C@H](C)N1 | ELISA | 1 µg/mL |  |  | 62% |
| COc1ccc2c(c1)N(C(C)C)C(=O)c1ccnnc1O2 | ELISA | 330 µM |  |  | 74% |
| Cc1[nH]c2ccccc2c1S(=O)(=O)c1ccccc1 | RT activity | 100 µM | K103N |  | 52% |
| CC(C)Nc1cccnc1N1CCN(C(=O)c2cc3cc(N)ccc3[nH]2)CC1 | nucleotide incorporation | 100 µM |  |  | 83% |
| COc1c(O)cc(-c2cc(=O)c3c(O)c(OC)c(O)cc3o2)c(O)c1OC | RT activity | 200 µg/mL |  |  | 1.4% |
| O=C(CC(=O)Nc1ncccc1[N+](=O)[O-])Nc1ccc2ccccc2n1 | RT activity / absorbance | 100 µM |  |  | 90.23% |
| C[C@@H]1CCC2=C(C=O)CCC[C@@H]2[C@@]12C[C@@H](c1ccoc1)OC2=O | RT activity / luminescence | 100 µM |  |  | 20% |
| CCOC(=O)CN1C(=O)c2ccnnc2Oc2ccc(C)cc21 | ELISA | 330 µM |  |  | 51% |
| O=C1C2=C(SCCS2)C(=O)N1CCCN1CCN(c2ccc(F)cc2)CC1 | RT activity | 200 µg/mL |  |  | 82.2% |
| CC(Sc1nc(Cl)cc(Cc2ccccc2)n1)c1ccccc1 | ELISA | 100 µM |  |  | 0% |
| CCN1C(=O)c2cc(Cl)nnc2N(CC)c2ccc(C)cc21 |  | 330 µM |  |  | 54% |
| CS(=O)(=O)O.C[C@@H]1CN(c2cc3c(cc2F)c(=O)c(C(=O)O)cn3-c2cccc3ccccc23)C[C@H](C)N1 | ELISA | 1 µg/mL |  |  | 47% |
| Cc1ccccc1CSc1nc(Cl)cc(Cc2ccccc2)n1 | ELISA | 100 µM |  |  | 0% |
| CCN1C(=O)c2ccnnc2N(CC)c2ccccc21 |  | 33 µM |  |  | 52% |
| CCN1c2ncccc2C(=O)Nc2c(CO)cc(OC)nc21 |  | 24 µM | RT-Y181C |  | 1% |
| CCN1C(=O)c2ccnnc2Oc2cc(C)ccc21 | ELISA | 33 µM |  |  | 17% |
| O=C(O)c1cn([C@@H]2O[C@H](CO)[C@@H](O)[C@H]2O)c2cc(Br)ccc2c1=O |  | 100 µM |  |  | 10% |